Compound potency records, mixed from different reports. Data source: NIAID ChemDB in PubChem.

Shared fields: tests in culture; species: Mycobacterium tuberculosis

An empty or dashed field is not shown. MIC bound comes from a single tested concentration. Inhibition is in % at the dose shown (toxicity tests: loss of growth or viability). Two numbers with a dash give a range or band. Lines come from different laboratories, so protocols vary. ECn: concentration that inhibits the pathogen or its effect by n%. A number after MIC or MFC names an inhibition level or a share of isolates.

smiles	mutations	method	tested at	measure	strain	result
Oc1ccc(Cl)cc1C(=S)Nc1ccc(Cl)c(Cl)c1	-	-	-	MIC	My 331/88	2 µM
Cc1[nH]n(C(=O)c2sc3ccc(Cl)cc3c2Cl)c(=O)c1N=Nc1c(Br)cc(Br)cc1Br	-	agar diffusion / agar	40 µg/mL	inhibition	-	22%
CC(=O)Oc1ccc(/C=N/NC(=O)c2ccncc2)cc1	-	-	-	MIC	-	1 µg/mL
COc1cc2c3c(c1OC)-c1cc4c(cc1CC3N(C=O)CC2)OCO4	-	resazurin	-	MIC	H37Rv	>50 µg/mL
Cc1ccc(-c2noc(C3=CC4(CCN(CC5CCCO5)CC4)c4ccccc43)n2)cn1	Spiroindene-resistant	turbidity	-	MIC	TB375	15.5 µM
COc1ccccc1NC(=O)C1=C(C)NC(C)=C(C(=O)Nc2ccccc2OC)C1c1ccc(N(C)C)cc1	-	-	2.5 µg/mL	inhibition	H37Rv	93%
COc1ccc(/C=N/NC(=O)c2cccnc2)cc1	-	-	-	MIC	-	1–10 µg/mL
Nc1nc(Cl)c(N=Nc2ccc(Cl)cc2)c(NCC2(CO)CC2)n1	-	resazurin	-	MIC bound	H37Rv	>6.25 µg/mL
Cc1ccc(NC(=O)C2(c3cccs3)CCOCC2)cc1F	-	turbidity	-	EC50	CDC1551	64 µM
C1=C(c2nc(-c3ccccc3)no2)c2ccccc2OC12CCN(CC1CCCO1)CC2	-	turbidity	-	MIC	H37Rv	3.1 µM
Oc1ccc(Cl)cc1C(=S)Nc1cccc(F)c1	-	-	-	MIC	My 331/88	4 µM
CO[C@H]1/C=C/O[C@@]2(C)Oc3c(C)c(O)c4c(c3C2=O)C(=O)C(N2CCC(=NOCc3ccccc3)CC2)=C(NC(=O)/C(C)=C\C=C\[C@H](C)[C@H](O)[C@@H](C)[C@@H](O)[C@@H](C)[C@H](OC(C)=O)[C@@H]1C)C4=O	-	-	-	MIC	H37Rv	0.0025 µg/mL
CCCCc1ccc(Nc2c(C#N)[n+]([O-])c3cc(Cl)ccc3[n+]2[O-])cc1	-	-	-	EC50	H37Rv	<12.5 µg/mL
O=C(CCN1C(=O)/C(=C/c2ccc3c(c2)OCO3)SC1=S)NNC(=O)c1ccccc1	-	-	-	MIC	H37Rv	54.95 µM
COc1cc(C2OC(c3sc4ccc(Cl)cc4c3Cl)=NN2C(C)=O)ccc1O	-	agar diffusion / agar	40 µg/mL	inhibition	-	5%
O=C(N/N=C/c1ccc(O)cc1O)c1ccncc1	-	-	-	MIC	PAS-R	0.5 µg/mL
O=C(Nc1ccc(F)cc1)C1(c2cccs2)CCOCC1	-	turbidity	-	EC50	CDC1551	67 µM
COc1ccc(NC(=S)c2cccc(Br)c2)cc1	-	-	-	MIC	H37Rv	61.9 µM
O=C1CCCCC1C(Nc1nc(-c2ccc(O)cc2)cs1)c1ccccc1	-	broth dilution / agar / visual reading	-	MIC	H37Rv	50 µg/mL
NC[C@@H]1O[C@H](O[C@H]2[C@@H](O)[C@H](O[C@@H]3[C@@H](O)[C@H](N)C[C@H](N)[C@H]3O[C@H]3O[C@H](CO)[C@@H](O)C[C@H]3N)O[C@@H]2CO)[C@H](N)[C@@H](O)[C@@H]1O[C@H]1O[C@H](CO)[C@@H](O)[C@H](O)[C@@H]1O	-	-	-	EC50	H37Rv	25–50 µg/mL
COc1ccc(C(=S)Nc2ccc(Cl)cc2)cc1	-	-	-	MIC	H37Rv	2000 µM
COc1ccc2c(c1)CC1c3c(cc4c(c3-2)OCO4)CCN1C	-	BACTEC	12.5 µg/mL	inhibition	H37Rv	48%
CC1(C)CCC[C@]2(C)[C@@H]1CC[C@]1(O)CC(=O)CC[C@H]12	-	resazurin	-	MIC	-	6.25 µg/mL
CC(C)N=c1cc2n(-c3ccc(Cl)cc3)c3ccccc3nc-2cc1Nc1ccc(Cl)cc1	MDR	broth dilution	-	MIC99	8666/2010	0.125 µM
COc1ccc(/C=N/NC(=O)c2ccncc2)c(O)c1	-	-	-	MIC	-	1 µg/mL
COc1cc(/C=C2\SC(=S)N(CCC(=O)NNC(=O)c3ccccc3)C2=O)cc(OC)c1OC	-	-	-	MIC	H37Rv	6.24 µM
CCOc1cnn(-c2ccccc2)c(=O)c1SCc1ccc(Cl)c(Cl)c1	-	BACTEC	-	MIC bound	H37Rv	>12.5 µg/mL
CO[C@H]1/C=C/O[C@@]2(C)Oc3c(C)c(O)c4c(c3C2=O)C(=O)C(N2CCC(=NNC(N)=O)CC2)=C(NC(=O)/C(C)=C\C=C\[C@H](C)[C@H](O)[C@@H](C)[C@@H](O)[C@@H](C)[C@H](OC(C)=O)[C@@H]1C)C4=O	-	-	-	MIC	H37Rv	0.005 µg/mL
COc1ccc(C2C(C(=O)Nc3ccccc3Cl)=C(C)NC(C)=C2C(=O)Nc2ccccc2Cl)cc1	-	-	2.5 µg/mL	inhibition	H37Rv	30%
CC(=O)Nc1ccc2c(c1)CN1C(=O)c3ccccc3C1=N2	-	resazurin	-	MIC bound	H37Rv	>6.25 µg/mL
CC(=O)CC[C@@H]1C(=O)CC[C@@H]2C(C)(C)CCC[C@@]12C	-	resazurin	-	MIC	-	12.5 µg/mL
CC(=O)Nc1ccc(N=Nc2c(C)[nH]n(C(=O)c3sc4ccc(Cl)cc4c3Cl)c2=O)cc1	-	agar diffusion / agar	40 µg/mL	inhibition	-	50%
O=C(Nc1ccccc1F)C1(c2cccs2)CCOCC1	-	turbidity	-	EC50	CDC1551	200 µM
Cc1ccc(NC(=S)c2ccccc2)cc1	-	-	-	MIC	H37Rv	375 µM
NNC(=O)c1ccncc1	MDR	broth dilution	-	MIC99	8666/2010	64 µM
Cc1ccc(N=Nc2c(C)[nH]n(C(=O)c3sc4ccc(Cl)cc4c3Cl)c2=O)c(C)c1	-	agar diffusion / agar	40 µg/mL	inhibition	-	18%
Oc1ccc(Cl)cc1C(=S)Nc1ccc(Cl)cc1	-	-	-	MIC	My 331/88	2 µM
COc1ccc(N=Nc2c(-c3cccs3)nn(C(=S)SC)c2C(F)(F)F)cc1	-	BACTEC	-	MIC	H37Rv	128 µg/mL
O=C(N/N=C/c1cccc(O)c1)c1ccncc1	-	-	-	MIC	-	0.1 µg/mL
Cl.Cl.FC(F)(F)c1ccc2c(c1)N(CCCN1CCN(CCCl)CC1)c1ccccc1S2	-	BACTEC	12.5 µg/mL	inhibition	H37Rv	20%
C1=C(c2nc(-c3cccnc3)no2)c2ccccc2C12CCN(CC1CCCO1)CC2	Drug-resistant	resazurin	-	MIC	D-211	1.56 µM
C=C1CC[C@@H]2C(C)(C)CCC[C@@]2(C)[C@@H]1CC/C(C)=C/C(=O)O	-	resazurin	-	MIC	-	125 µg/mL
CC1COc2c(N3CCN(C)CC3)c(F)cc3c(=O)c(C(=O)O)cn1c23	MDR	broth dilution	-	MIC99	9449/2007	8 µM
CN=C(NN(C)C)c1ccc(NC(=O)c2ccc(C(=O)Nc3ccc(C(=NC)NN(C)C)cc3)cc2)cc1	-	BACTEC	-	MIC	H37Rv	3.13 µg/mL
COc1ccc(-c2csc(NC(c3cccc(Cl)c3)C3CCCCC3=O)n2)cc1	-	broth dilution / agar / visual reading	-	MIC	H37Rv	12.5 µg/mL
CN(C)c1ccc(/C=N/NC(=O)c2cccnc2)cc1	-	-	-	MIC	-	10 µg/mL
CC(=O)N1N=C(c2sc3ccc(Cl)cc3c2Cl)OC1c1cccc(Oc2ccccc2)c1	-	agar diffusion / agar	40 µg/mL	inhibition	-	4%
CCN(CC)CC[n+]1ccc2c(C)c3[nH]c4ccc(O)cc4c3c(C)c2c1.[Cl][Pt-2]([Cl])([Cl])[Cl].[H+]	-	resazurin	-	MIC bound	H37Rv	<6.25 µg/mL
S=C(Nc1ccc(Cl)cc1)c1cccc(Br)c1	-	-	-	MIC	H37Rv	31 µM
NNC(=O)c1ccncc1	-	broth dilution / agar / visual reading	-	MIC	H37Rv	1 µg/mL
COc1ccc(C(=S)Nc2ccc(Cl)c(Cl)c2)cc1	-	-	-	MIC	H37Rv	31 µM
Nc1c2c(nn1-c1ccccc1)C(=O)N(CCc1ccccc1)C2	-	BACTEC	12.8 µg/mL	inhibition	H37Rv	24%
O=C(CCN1C(=O)/C(=C/c2ccc(OCc3ccccc3)cc2)SC1=S)NNC(=O)c1ccncc1	-	-	-	MIC	H37Rv	24.13 µM
Cc1ccc(-c2csc(NC(c3ccc(O)cc3)C3CCCCC3=O)n2)cc1	-	broth dilution / agar / visual reading	-	MIC	H37Rv	50 µg/mL
S=C(Nc1ccccc1)c1ccccc1	-	-	-	MIC	H37Rv	125 µM
COc1ccc(C2OC(c3sc4ccc(Cl)cc4c3Cl)=NN2C(C)=O)cc1OC	-	agar diffusion / agar	40 µg/mL	inhibition	-	2%
C1=C(c2nc(-c3ccsc3)no2)c2ccccc2C12CCN(CC1CCCO1)CC2	-	resazurin	-	MIC	H37Rv	1.1 µM
COc1ccccc1NC(=O)C1=C(C)NC(C)=C(C(=O)Nc2ccccc2OC)C1c1ccccc1Cl	-	-	2.5 µg/mL	inhibition	H37Rv	37%
Cn1c2c(c(=O)n(C)c1=O)S(=O)(=O)N=CN2	-	BACTEC	12.5 µg/mL	inhibition	H37Rv	0%
CN[C@@H]1[C@@H](O)[C@@H](O[C@@H]2[C@@H](O)[C@H](O[C@H]3O[C@H](CN)CC[C@H]3N)[C@@H](N)C[C@H]2N)OC[C@]1(C)O	MDR	broth dilution	-	MIC99	Praha 4	0.5 µM
O=C(CCN1C(=O)/C(=C/c2ccc(OCc3ccccc3)cc2)SC1=S)NNC(=O)c1cccc2ccccc12	-	-	-	MIC	H37Rv	88.18 µM
C/C(=N\Nc1cc(C)c2ccccc2n1)c1ccccn1	-	BACTEC	12.5 µg/mL	inhibition	H37Rv	83%
CO[C@H]1/C=C/O[C@@]2(C)Oc3c(C)c(O)c4c(c3C2=O)C(=O)C(N2CCC(=O)CC2)=C(NC(=O)/C(C)=C\C=C\[C@H](C)[C@H](O)[C@@H](C)[C@@H](O)[C@@H](C)[C@H](OC(C)=O)[C@@H]1C)C4=O	-	-	-	MIC	H37Rv	0.0025 µg/mL
O=Nc1c(-c2cccc([N+](=O)[O-])c2)nc2cnccn12	-	resazurin	-	MIC bound	H37Rv	<6.25 µg/mL
NC(=O)c1ccccc1NC(=O)C1(c2cccs2)CCOCC1	-	turbidity	-	EC50	CDC1551	200 µM
COc1cc(N=Nc2cc(C)c(NC(=O)c3ccc(N)cc3)cc2C)c(OC)cc1N=Nc1ccc2cc(S(=O)(=O)O)ccc2c1	-	BACTEC	12.5 µg/mL	inhibition	H37Rv	0%
O=C(Nc1ccc(C(F)(F)F)cc1)C1(c2cccs2)CCOCC1	-	turbidity	-	EC50	CDC1551	9.7 µM
S=C(Nc1ccc(Br)cc1)c1cccc(Br)c1	-	-	-	MIC	H37Rv	31 µM
CCC(C)c1ccc(NC(=S)c2cc(Cl)ccc2O)cc1	-	-	-	MIC	My 331/88	1 µM
Cc1ccc(C(=S)Nc2ccc(Cl)cc2)cc1	-	-	-	MIC	H37Rv	187.5 µM
COc1cc(OC)c2cc([N+](=O)[O-])c3ccc(=O)oc3c2c1	-	resazurin	-	MIC	H37RvRr	50 µg/mL
CO[C@H]1/C=C/O[C@@]2(C)Oc3c(C)c(O)c4c(O)c(c(/C=N/N5CCN(C)CC5)c(O)c4c3C2=O)NC(=O)/C(C)=C\C=C\[C@H](C)[C@H](O)[C@@H](C)[C@@H](O)[C@@H](C)[C@H](OC(C)=O)[C@@H]1C	MDR	broth dilution	-	MIC99	9449/2007	>8 µM
COc1ccc(-c2noc(C3=CC4(CCN(CC5CCCO5)CC4)c4ccccc43)n2)cc1	Drug-resistant	resazurin	-	MIC	Beijing (E-47/94)	0.39 µM
Cn1nnc2ccccc2c1=O	-	BACTEC	-	MIC bound	H37Rv	>12.5 µg/mL
O=C(CCN1C(=O)/C(=C/c2ccc(Cl)cc2)SC1=S)NNC(=O)c1ccncc1	-	-	-	MIC	H37Rv	25.25 µM
Cc1cc(N=NC(N)=O)c2ccccc2c1O	-	BACTEC	-	MIC bound	H37Rv	>12.5 µg/mL
CC[C@@H](CO)NCCN[C@@H](CC)CO	MDR	broth dilution	-	MIC99	Praha 1	32 µM
CC(=O)C1(C)C(=O)N(c2ccc(Br)cc2)C(=O)N1c1ccc(Br)cc1	-	BACTEC	-	MIC bound	H37Rv	>12.5 µg/mL
Cc1[nH]n(C(=O)c2sc3ccc(Cl)cc3c2Cl)c(=O)c1N=Nc1cccc([N+](=O)[O-])c1	-	agar diffusion / agar	40 µg/mL	inhibition	-	46%
S=P1(c2ccccc2)Nc2ccccc2N1C1CCCCC1	-	resazurin	6.25 µg/mL	inhibition	H37Rv	54%
O=C(NN=C1CCCC1)c1cccnc1	-	-	-	MIC	-	1 µg/mL
COc1ccccc1C1OCC(C)(C)N1C	-	BACTEC	12.5 µg/mL	inhibition	H37Rv	14%
COc1ccc(C2C(C(=O)Nc3cc(C)ccc3C)=C(C)NC(C)=C2C(=O)Nc2cc(C)ccc2C)cc1	-	-	-	EC50	H37Rv	>2.5 µg/mL
CN(C)CCNc1ccc([N+](=O)[O-])c2sc3ccccc3c(=O)c12	-	BACTEC	12.5 µg/mL	inhibition	H37Rv	98%
COc1cc(/C=C2\SC(=S)N(CCC(=O)NNC(=O)c3cccnc3)C2=O)cc(OC)c1OC	-	-	-	MIC	H37Rv	49.8 µM

The last 5 rows once more:

smiles,mutations,method,tested at,measure,strain,result
O=C(NN=C1CCCC1)c1cccnc1,-,-,-,MIC,-,1 µg/mL
COc1ccccc1C1OCC(C)(C)N1C,-,BACTEC,12.5 µg/mL,inhibition,H37Rv,14%
COc1ccc(C2C(C(=O)Nc3cc(C)ccc3C)=C(C)NC(C)=C2C(=O)Nc2cc(C)ccc2C)cc1,-,-,-,EC50,H37Rv,>2.5 µg/mL
CN(C)CCNc1ccc([N+](=O)[O-])c2sc3ccccc3c(=O)c12,-,BACTEC,12.5 µg/mL,inhibition,H37Rv,98%
COc1cc(/C=C2\SC(=S)N(CCC(=O)NNC(=O)c3cccnc3)C2=O)cc(OC)c1OC,-,-,-,MIC,H37Rv,49.8 µM